PSTVd stem 3 mutant pool in Nicotiana benthamiana

Data from the supplement of Wu et al. 2024, doi:10.1371/journal.ppat.1012142.

The pool varies stem 3 of the PSTVd intermediate strain in the pattern GUGGUUCCGNANNCNN; wild type is GUGGUUCCGGAACCGC (upper and lower strand joined, each 5' to 3', the first 8 letters being the upper strand).

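Three N. benthamiana plants were inoculated with the whole mutant pool. Progeny were sequenced from the inoculated region (day 5), the margin of the inoculated leaf (day 10) and systemic leaves (day 12).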

Numbers give reads per thousand; 0 = not seen among the reads, higher = more abundant.
Each site shows the three plants.
"Pool" is the share in the plasmid pool used as inoculum, on the same scale.
The inoculated region was read from the minus strand, the other sites from the plus strand.
The authors trace changes outside the varied positions to PCR and sequencing errors or to mutation in the plant; presence does not show that a variant is infectious alone.
With 27,691-54,225 reads a sample, very low values are single reads.
For reference, wild type rose from 17.3 per thousand in the pool to 330, 345, 235 (inoculated region), 794, 766, 816 (leaf margin) and 830, 792, 869 (systemic leaves).

sequence,pool,inoculated region,leaf margin,systemic leaves
GUGGUUCCGAAGACGG,0.846,0.586 / 0.647 / 0.784,0 / 0.0318 / 0.0361,0 / 0 / 0
GUGGUUCCGAAGACGU,0.831,0.853 / 0.755 / 1.08,0 / 1.08 / 0.325,0 / 0 / 0
GUGGUUCCGAAGACUA,0.769,0.640 / 0.539 / 0.757,0 / 0.0318 / 0.469,0 / 0 / 0
GUGGUUCCGAAGACUC,0.708,1.07 / 0.647 / 0.784,0 / 0 / 0.325,0 / 0 / 0
GUGGUUCCGAAGACUG,1.05,0.880 / 0.668 / 0.865,0.0283 / 0.0318 / 0,0 / 0 / 0
GUGGUUCCGAAGACUU,1.11,0.933 / 0.755 / 1.05,1.64 / 0.986 / 0.469,1.23 / 1.53 / 0.900
GUGGUUCCGAAGCCAA,1.12,0.826 / 0.690 / 0.892,2.12 / 1.11 / 0.506,1.32 / 1.53 / 0.730
GUGGUUCCGAAGCCAC,1.18,1.04 / 1.14 / 1.70,2.04 / 0.986 / 0.469,1.10 / 1.49 / 1.05
GUGGUUCCGAAGCCAG,0.954,0.933 / 0.712 / 0.919,0 / 0.0318 / 0,1.25 / 1.07 / 0.949
GUGGUUCCGAAGCCAU,1.43,0.613 / 0.819 / 1.11,1.27 / 1.15 / 0.397,1.75 / 1.01 / 0.681
GUGGUUCCGAAGCCCA,1.09,0.960 / 0.582 / 1.03,0 / 0.0318 / 0.0361,0 / 0 / 0
GUGGUUCCGAAGCCCC,0.785,0.933 / 0.604 / 1.11,0 / 0 / 0.433,0 / 0 / 0
GUGGUUCCGAAGCCCG,0.739,0.480 / 0.841 / 0.811,0 / 0.0318 / 0.614,0 / 0 / 0
GUGGUUCCGAAGCCCU,0.769,0.560 / 0.927 / 1.00,0.0283 / 0.923 / 0.361,0 / 0 / 0
GUGGUUCCGAAGCCGA,0.970,0.720 / 0.776 / 0.865,0 / 1.08 / 0.397,0 / 0 / 0
GUGGUUCCGAAGCCGC,0.846,0.880 / 0.582 / 0.865,0 / 0.0318 / 0.0361,0 / 0 / 0
GUGGUUCCGAAGCCGG,0.877,0.613 / 0.755 / 0.703,0 / 0 / 0,0 / 0 / 0
GUGGUUCCGAAGCCGU,1.00,0.826 / 0.625 / 0.757,2.58 / 1.11 / 0.361,1.58 / 1.35 / 0.681
GUGGUUCCGAAGCCUA,0.739,0.720 / 0.604 / 0.757,0.0283 / 0.0318 / 0.722,0 / 0 / 0
GUGGUUCCGAAGCCUC,1.08,0.693 / 0.949 / 0.703,0 / 0.0318 / 0,0 / 0 / 0
GUGGUUCCGAAGCCUG,0.831,1.71 / 1.34 / 1.84,0.737 / 0 / 0.758,0 / 0 / 0
GUGGUUCCGAAGCCUU,0.939,1.17 / 0.690 / 0.892,0.0283 / 0.0318 / 0,0 / 0 / 0
GUGGUUCCGAAGGAUU,0.0154,0.480 / 0.323 / 0.540,0 / 0 / 0,0 / 0 / 0
GUGGUUCCGAAGGCAA,0.693,1.31 / 0.690 / 1.27,0 / 0.891 / 0.578,0 / 0 / 0
GUGGUUCCGAAGGCAC,0.862,0.960 / 0.582 / 0.838,0 / 1.18 / 0.397,0 / 0 / 0
GUGGUUCCGAAGGCAG,0.708,0.693 / 0.712 / 0.892,0 / 0.954 / 0.289,0 / 0 / 0
GUGGUUCCGAAGGCAU,0.708,0.773 / 0.604 / 0.676,1.87 / 1.15 / 0.397,1.14 / 1.46 / 0.730
GUGGUUCCGAAGGCCA,1.02,0.906 / 0.647 / 0.757,0.0283 / 0.795 / 0.325,0 / 0 / 0
GUGGUUCCGAAGGCCC,1.63,1.07 / 0.927 / 1.22,0 / 0.636 / 0.686,0.0186 / 0.0553 / 0.0243
GUGGUUCCGAAGGCCG,1.17,1.28 / 1.29 / 1.78,0.227 / 0.0318 / 0.361,0 / 0 / 0
GUGGUUCCGAAGGCCU,0.862,0.986 / 0.755 / 0.946,0 / 1.27 / 0.289,0 / 0 / 0
GUGGUUCCGAAGGCGA,0.831,0.560 / 0.798 / 0.676,0.0283 / 0.0318 / 0.0361,0 / 0 / 0
GUGGUUCCGAAGGCGC,0.954,1.09 / 0.949 / 1.73,0.425 / 1.05 / 0.831,0 / 0 / 0
GUGGUUCCGAAGGCGG,1.83,0.853 / 0.884 / 1.05,0 / 0 / 0,0.261 / 0 / 0
GUGGUUCCGAAGGCGU,0.631,0.933 / 0.539 / 1.05,0 / 0.859 / 0.217,0 / 0 / 0
GUGGUUCCGAAGGCUA,1.00,0.746 / 0.388 / 0.811,0 / 1.02 / 0.325,0 / 0 / 0
GUGGUUCCGAAGGCUC,0.785,1.04 / 0.949 / 0.784,0.0567 / 0.0636 / 0.506,0 / 0 / 0
GUGGUUCCGAAGGCUG,0.646,0.746 / 0.690 / 0.946,0 / 0 / 0.578,0 / 0 / 0
GUGGUUCCGAAGGCUU,1.49,0.986 / 1.08 / 1.05,1.64 / 0.891 / 0.253,1.19 / 1.20 / 0.657
GUGGUUCCGAAGUCAA,1.12,0.853 / 0.906 / 1.03,1.27 / 1.18 / 0.397,1.10 / 1.49 / 0.584